Assay results: PMC6127852 (Journal of Enzyme Inhibition and Medicinal Chemistry, 2018)

Legend:
calf thymus ctDNA = experiment: UV–Vis titration with ctDNA (Scatchard); format: binding; conditions: for n ([compound]/[polynucleotide phosphate]), ctDNA: Scatchard, accuracy of n ± 10–30%; for n, ctDNA (range r ≥ 0.1): footnote f: mixed binding mode, calculated in range r ≥ 0.1
Description: (§1) Polynucleotides were purchased as follows: polyG–polyC, polyA–polyU (Sigma-Aldrich, St. Louis, MO), calf thymus ctDNA (Aldrich). Polynucleotides were dissolved in PBS buffer, I = 0.05 mol dm^−3, pH 7.0. The calf thymus ctDNA was additionally sonicated and filtered through a […] filter. The polynucleotide concentration was spectroscopically determined as the concentration of nucleobases.
(§2) All UV–Vis absorbance measurements were conducted on a Perkin Elmer Lambda 25 spectrophotometer (Perkin Elmer, Waltham, MA). A quartz cell with a 1 cm path length was used for all absorbance studies. Compound stock solutions were 1 mM. The DNA/RNA at increasing ratios was then titrated into the compound buffer solution (1.48 × 10^−5 mol dm^−3) and the corresponding absorption spectra were recorded under the same conditions. All data were graphed and analysed using Origin software version 9.0 (OriginLab Corporation, Northampton, MA). The stability constants (Ks) and [bound compound]/[polynucleotide phosphate] ratios (n) were calculated according to the Scatchard Equation[63] ^, [64]. Values for Ks and n given in Table 1 all have satisfying correlation coefficients (0.99).
(§3) The binding constants logKs and the density of the binding sites n were calculated using Scatchard plot analysis. In addition, the binding constants Ks for compounds 8b and 8e were calculated only for titration data taken at the r ≥ 0.1, because below that ratio changes in absorption maxima were too small for accurate calculation (ΔA ≤ 0.04) (Table 1). The binding constants Ks and ratios n obtained by processing UV–Vis titration data using the Scatchard equation are summarised in Table 1.

polyA-polyU = experiment: UV–Vis titration with polyA-polyU (Scatchard); format: binding; conditions: for n, polyA-polyU: Scatchard, column head empty; for n, polyA-polyU (n = fix): footnote d: n = fix
Description: as §1, §2, §3

polyC-polyG = experiment: UV–Vis titration with polyC-polyG (Scatchard); format: binding; conditions: for n, polyC-polyG: Scatchard; for n, polyC-polyG (n = fix): footnote d: n = fix
Description: as §1, §2, §3

ctDNA = experiment: Thermal melting (ΔTm) of ctDNA; format: binding, calf; conditions: from non-linear dependence of ΔTm on r; polynucleotide not given
Description: T m experiments were conducted with a Perkin Elmer Lambda 25 spectrophotometer in 1 cm quartz cuvettes. The absorbance of the DNA/RNA-compound complex was monitored at 260 nm as a function of temperature. The absorbance of the ligands was subtracted from every curve, and the absorbance scale was normalised. The ΔT m values were calculated by subtracting T m of the free nucleic acid from T m of the complex. Every reported ΔT m value was the average of at least two measurements. The error of ΔT m is ±0.5 °C. All data were graphed and analysed using Origin software version 9.0.
Denaturation experiments were carried out at different amounts of the compounds (r = 0.1, 0.3, 0.5, and 0.7 eq; r = [compound]/[polynucleotide]) with ctDNA and polyA-polyU.

Row | Compound | n ([compound]/[polynucleotide phosphate]), ctDNA (calf thymus ctDNA) | n, polyA-polyU (polyA-polyU) | n, polyC-polyG (polyC-polyG) | n, polyC-polyG (n = fix) (polyC-polyG) | n, polyA-polyU (n = fix) (polyA-polyU) | saturation of binding sites at ratio r (ctDNA) | n, ctDNA (range r ≥ 0.1) (calf thymus ctDNA)
1 | CC(C)NC(=N)c1ccc2[nH]c(-c3ccc(OCc4cn(-c5ccccc5Cl)nn4)cc3)nc2c1.Cl.Cl [Compound 8c, N-isopropyl-2–(4-((1–(2-chlorophenyl)-1H-1,2,3-triazol-4-yl)methoxy)phenyl)-1H-benz[d]imidazole-5-carboximidamide dihydrochloride] | 0.69 | 0.19 | 0.36 |  |  |  | 
2 | Cl.Cl.c1ccc(SCn2cc(COc3ccc(-c4nc5cc(C6=NCCN6)ccc5[nH]4)cc3)nn2)cc1 [Compound 9e, 5–(4,5-Dihydro-1H-imidazol-2-yl)-2–(4-((1-(phenylthiomethyl)-1H-1,2,3-triazol-4-yl)methoxy)phenyl)-1H-benz[d]imidazole dihydrochloride] | 0.12 | 0.26 |  | 0.4 ^d |  |  | 
3 | Cl.Cl.N=C(N)c1ccc2[nH]c(-c3ccc(OCc4cn(CSc5ccccc5)nn4)cc3)nc2c1 [Compound 7e, 2–(4-((1-((Phenylthio)methyl)-1H-1,2,3-triazol-4-yl)methoxy)phenyl)-1H-benz[d]imidazole-5-carboximidamide dihydrochloride] | 0.61 | 0.29 | 0.69 |  |  |  | 
4 | CC(C)NC(=N)c1ccc2[nH]c(-c3ccc(OCc4cn(Cc5ccccc5)nn4)cc3)nc2c1 [Compound 8d] | 0.47 | 0.30 |  | 0.40 ^d |  |  | 
5 | Cl.Cl.N=C(N)c1ccc2[nH]c(-c3ccc(OCc4cn(-c5ccccc5Cl)nn4)cc3)nc2c1 [Compound 7c, 2–(4-((1–(2-Chlorophenyl)-1H-1,2,3-triazol-4-yl)methoxy)phenyl)-1H-benz[d]imidazole-5-carboximidamide dihydrochloride] | 0.58 | 0.18 |  |  |  |  | 
6 | N=C(N)c1ccc2[nH]c(-c3ccc(OCc4cn(Cc5ccccc5)nn4)cc3)nc2c1 [Compound 7d] | 0.59 | 0.11 | 0.36 |  |  |  | 
7 | CC(C)NC(=N)c1ccc2[nH]c(-c3ccc(OCc4cn(-c5ccccc5)nn4)cc3)nc2c1 [Compound 8a] | 0.64 | 0.24 |  | 0.4 ^d |  |  | 
8 | COc1ccc(-n2cc(COc3ccc(-c4nc5cc(C6=NCCN6)ccc5[nH]4)cc3)nn2)cc1.Cl.Cl [Compound 9b, 5–(4,5-Dihydro-1H-imidazol-2-yl)-2–(4-((1–(4-methoxyphenyl)-1H-1,2,3-triazol-4-yl)methoxy)phenyl)-1H-benz[d]imidazole dihydrochloride] |  |  |  |  | 0.30 ^d |  | 
9 | N=C(N)c1ccc2[nH]c(-c3ccc(OCc4cn(-c5ccccc5)nn4)cc3)nc2c1 [Compound 7a] | 0.27 | 0.31 |  | 0.40 ^d |  | 0.3–0.5 | 
10 | c1ccc(Cn2cc(COc3ccc(-c4nc5cc(C6=NCCN6)ccc5[nH]4)cc3)nn2)cc1 [Compound 9d] | 0.75 |  | 0.41 |  | 0.30 ^d | 0.5–0.7 | 
11 | COc1ccc(-n2cc(COc3ccc(-c4nc5cc(C(=N)NC(C)C)ccc5[nH]4)cc3)nn2)cc1.Cl.Cl [Compound 8b, N-isopropyl-2–(4-((1–(4-methoxyphenyl)-1H-1,2,3-triazol-4-yl)methoxy)phenyl)-1H-benz[d]imidazole-5-carboximidamide dihydrochloride] |  | 0.23 | 0.39 |  |  |  | 0.62 ^f
12 | Cl.Cl.Clc1ccccc1-n1cc(COc2ccc(-c3nc4cc(C5=NCCN5)ccc4[nH]3)cc2)nn1 [Compound 9c, 5–(4,5-Dihydro-1H-imidazol-2-yl)-2–(4-((1–(2-chlorophenyl)-1H-1,2,3-triazol-4-yl)methoxy)phenyl)-1H-benz[d]imidazole dihydrochloride] | 0.35 | 0.29 | 0.36 |  |  |  | 
13 | COc1ccc(-n2cc(COc3ccc(-c4nc5cc(C(=N)N)ccc5[nH]4)cc3)nn2)cc1.Cl.Cl [Compound 7b, 2–(4-((1–(4-Methoxyphenyl)-1H-1,2,3-triazol-4-yl)methoxy)phenyl)-1H-benz[d]imidazole-5-carboximidamide dihydrochloride] |  |  | 0.73 |  |  |  | 
14 | CC(C)NC(=N)c1ccc2[nH]c(-c3ccc(OCc4cn(CSc5ccccc5)nn4)cc3)nc2c1.Cl.Cl [Compound 8e, N-isopropyl-2–(4-((1-(phenylthiomethyl)-1H-1,2,3-triazol-4-yl)methoxy)phenyl)-1H-benz[d]imidazole-5-carboximidamide dihydrochloride] |  | 0.30 | 0.28 |  |  |  | 0.36 ^f
15 | c1ccc(-n2cc(COc3ccc(-c4nc5cc(C6=NCCN6)ccc5[nH]4)cc3)nn2)cc1 [Compound 9a] |  |  |  | 0.40 ^d |  |  | 
